# Tested on: S-D614, N501Y.V1, N501Y.V2, S-SARS and S-MERS pseudoviruses
# Conditions: including variants N501Y.V1 and N501Y.V2
row,SMILES,activity against S-pseudotyped coronaviruses
1,"COc1ccc(C[C@@H]2c3cc(Oc4cc(C[C@@H]5c6cc(OC)c(OC)cc6CCN5C)ccc4O)c(OC)cc3CCN2C)cc1 [SC185, Neferine]",highly potent pan-inhibitory activity
2,"COc1ccc2cc1Oc1ccc(cc1)C[C@H]1c3cc(c(OC)cc3CCN1C)Oc1c(OC)c(OC)c(OC)c3c1[C@H](C2)N(C)CC3 [SC161, Hernandezine]",highly potent pan-inhibitory activity
3,"CC1CCN(CC(O)COc2cccc(OCC(O)CN3CCC(C)CC3)c2)CC1 (stereo not shown) [SC171, 3,3'-(1,3-phenylenebis(oxy))bis(1-(4-methylpiperidin-1-yl)propan-2-ol)]",highly potent pan-inhibitory activity
4,"COc1ccc2cc1Oc1ccc(cc1)C[C@H]1c3c(cc4c(c3Oc3cc5c(cc3OC)CCN(C)[C@@H]5C2)OCO4)CCN1C [SC9, Cepharanthine]",highly potent pan-inhibitory activity

# From PMC7985570 (Signal Transduction and Targeted Therapy, 2021)
